# Potato spindle tuber viroid, stem 15: variant abundance in plants

Values reported by Wu et al. 2024 (doi:10.1371/journal.ppat.1012142).

The pool varies stem 15 of the PSTVd intermediate strain in the pattern CUGGAGCGAUNGNNUNNG; wild type is CUGGAGCGAUCGCUUCGG (upper and lower strand joined, each 5' to 3', the first 9 letters being the upper strand).

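A pool of all variants was put on leaves of three Nicotiana benthamiana plants. Progeny were sequenced from the inoculated region (day 5), the margin of the inoculated leaf (day 10) and systemic leaves (day 12).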

Values are reads per thousand in the sample; higher means more abundant, 0 means not found.
Each site shows the three plants.
"Pool" is the share in the plasmid pool used as inoculum, on the same scale.
The inoculated region was read from the minus strand, the other sites from the plus strand.
IR is the inoculated region, LM the leaf margin, Sys the systemic leaves.
For reference, wild type rose from 10.2 per thousand in the pool to 285, 367, 312 (inoculated region), 785, 865, 782 (leaf margin) and 854, 898, 915 (systemic leaves).
Samples held 36,693 to 63,082 reads, so the smallest values rest on one or two reads.
The authors trace changes outside the varied positions to PCR and sequencing errors or to mutation in the plant; presence does not show that a variant is infectious alone.

sequence	pool	IR	LM	Sys
CUGGAGCGAUAGGGUACG	0.792	0.274 0.251 0.298	0.0827 0 0.0317	0 0 0
CUGGAGCGAUAGGGUAGG	0.840	0.215 0.230 0.335	0.0620 0.0545 0.0476	0 0 0
CUGGAGCGAUAGGGUAUG	1.00	0.411 0.230 0.168	0.0207 0.0273 0.0159	0 0 0
CUGGAGCGAUAGGGUCAG	0.905	0.313 0.188 0.391	0.0414 0.0545 0.0159	0 0 0
CUGGAGCGAUAGGGUCCG	0.873	0.391 0.293 0.242	0.0827 0.0545 0.0159	0 0 0
CUGGAGCGAUAGGGUCGG	1.10	0.274 0.314 0.391	0.0207 0.0545 0	0 0 0
CUGGAGCGAUAGGGUCUG	0.679	0.196 0.188 0.205	0.103 0 0	0 0 0
CUGGAGCGAUAGGGUGAG	0.905	0.333 0.168 0.354	0.0207 0.0818 0	0 0 0
CUGGAGCGAUAGGGUGCG	0.760	0.313 0.335 0.242	0.165 0.0273 0.0317	0 0 0
CUGGAGCGAUAGGGUGGG	0.954	0.352 0.272 0.279	0.0827 0 0.0317	0 0 0
CUGGAGCGAUAGGGUGUG	0.873	0.313 0.147 0.391	0.0620 0.0273 0.0317	0 0 0
CUGGAGCGAUAGGGUUAG	1.28	0.274 1.24 0.223	0.0207 0.0545 0.0159	0 0 0
CUGGAGCGAUAGGGUUCG	0.921	0.176 0.147 0.372	0.0207 0 0.0159	0 0 0
CUGGAGCGAUAGGGUUGG	1.45	0.763 0.523 0.968	0 0.0545 0.0159	0 0 0
CUGGAGCGAUAGGGUUUG	0.857	0.157 0.251 0.465	0 0.0273 0.0159	0 0 0
CUGGAGCGAUAGGUUAAG	1.16	0.294 0.377 0.354	0.165 0.0545 0.0317	0 0 0
CUGGAGCGAUAGGUUACG	0.970	0.372 0.209 0.354	0.0620 0.0273 0	0 0 0
CUGGAGCGAUAGGUUAGG	0.937	0.196 0.314 0.279	0.0827 0.0273 0.0317	0 0 0
CUGGAGCGAUAGGUUAUG	0.889	0.176 0.314 0.223	0.103 0 0.0159	0 0 0
CUGGAGCGAUAGGUUCAG	1.45	0.959 0.628 0.819	0.103 0 0.0159	0 0 0.0399
CUGGAGCGAUAGGUUCCG	0.792	0.274 0.209 0.298	0.0414 0.0545 0	0 0 0
CUGGAGCGAUAGGUUCGG	0.792	0.235 0.251 0.316	0 0 0.0476	0 0 0
CUGGAGCGAUAGGUUCUG	0.776	0.274 0.147 0.298	0.0620 0.0273 0.0159	0 0 0
CUGGAGCGAUAGGUUGAG	0.792	0.117 0.314 0.186	0.0827 0.0273 0.0159	0 0 0
CUGGAGCGAUAGGUUGCG	1.00	0.313 0.209 0.279	0.0620 0.0273 0.0317	0 0 0
CUGGAGCGAUAGGUUGGG	0.808	0.313 0.230 0.316	0.0207 0.0273 0.0159	0 0 0
CUGGAGCGAUAGGUUGUG	0.857	0.294 0.272 0.279	0.0620 0.0273 0.0159	0 0 0
CUGGAGCGAUAGGUUUAG	0.630	0.274 0.377 0.335	0 0.0273 0	0 0 0
CUGGAGCGAUAGGUUUCG	1.21	0.489 0.356 0.279	0 0.0545 0.0159	0 0 0
CUGGAGCGAUAGGUUUGG	0.857	0.274 0.126 0.484	0.0207 0 0	0 0 0
CUGGAGCGAUAGGUUUUG	0.889	0.215 0.293 0.186	0.0207 0.0545 0.0159	0 0 0
CUGGAGCGAUAGUAUAAG	0.921	0.274 0.230 0.316	0.0620 0 0.0476	0 0 0
CUGGAGCGAUAGUAUACG	0.840	0.352 0.251 0.261	0.0620 0.0545 0.0159	0 0 0
CUGGAGCGAUAGUAUAGG	0.889	0.235 0.209 0.261	0.0414 0.0273 0.0159	0 0 0
CUGGAGCGAUAGUAUAUG	0.760	0.274 0.251 0.391	0.0414 0.0273 0.0159	0 0 0
CUGGAGCGAUAGUAUCAG	0.840	0.137 0.209 0.372	0 0.0273 0.0634	0 0 0
CUGGAGCGAUAGUAUCCG	0.954	0.235 0.188 0.242	0.0414 0.0273 0.0159	0 0 0
CUGGAGCGAUAGUAUCGG	0.840	0.352 0.168 0.261	0 0 0	0 0 0
CUGGAGCGAUAGUAUCUG	0.743	0.313 0.419 0.372	0.0827 0.0273 0.0634	0 0 0
CUGGAGCGAUAGUAUGAG	0.792	0.157 0.293 0.298	0.0414 0.0545 0.0317	0 0 0
CUGGAGCGAUAGUAUGCG	0.889	0.215 0.335 0.372	0.124 0.0273 0.0317	0 0 0
CUGGAGCGAUAGUAUGGG	0.840	0.254 0.209 0.223	0.0414 0.0273 0.0317	0 0 0
CUGGAGCGAUAGUAUGUG	0.986	0.372 0.398 0.298	0.165 0 0.0159	0 0 0
CUGGAGCGAUAGUAUUAG	0.921	1.80 1.17 1.40	0.538 0.0273 0.872	0.950 0 0
CUGGAGCGAUAGUAUUCG	0.711	0.215 0.168 0.261	0.0207 0.0273 0.0159	1.29 0 0
CUGGAGCGAUAGUAUUGG	1.03	0.313 1.15 0.372	0.124 0.0273 0.0317	0 0 0
CUGGAGCGAUAGUAUUUG	0.727	0.254 0.335 0.279	0.0827 0.0273 0.0159	0 0 0
CUGGAGCGAUAGUCUAAG	0.792	2.17 1.53 1.45	0.0620 0 0.808	0 0 0
CUGGAGCGAUAGUCUACG	2.39	0.861 1.49 0.949	0 0.0818 0	0 0 0.0199
CUGGAGCGAUAGUCUAGG	0.824	0.294 0.230 0.279	0.0414 0.0273 0	0 0 0
CUGGAGCGAUAGUCUAUG	1.00	0.137 0.817 0.391	0.0414 0 0.0793	0 0 0
CUGGAGCGAUAGUCUCAG	0.857	1.94 0.921 1.58	0.0620 0.0273 0.904	0 0 0
CUGGAGCGAUAGUCUCCG	1.97	0.763 1.86 0.968	0.186 0 0.0476	0 0 0
CUGGAGCGAUAGUCUCGG	0.824	0.176 0.230 0.261	0.0827 0.0273 0	0 0 0
CUGGAGCGAUAGUCUCUG	0.970	0.254 0.209 0.298	0.103 0 0.0317	0 0 0
CUGGAGCGAUAGUCUGAG	0.743	2.15 0.942 0.261	0.0620 0 0.0476	0 0 0
CUGGAGCGAUAGUCUGCG	0.986	0.274 0.272 0.372	0.0207 0.0273 0.0317	0 0 0
CUGGAGCGAUAGUCUGGG	0.614	0.294 0.251 0.447	0.0620 0 0	0 0 0
CUGGAGCGAUAGUCUGUG	0.873	0.509 0.377 0.744	0.103 0 0	0 0 0
CUGGAGCGAUAGUCUUAG	1.03	1.98 0.984 1.95	0.620 0.491 0.856	0.891 0.798 0.458
CUGGAGCGAUAGUCUUCG	0.760	1.70 1.01 1.77	0.0207 0.0273 0.0317	0 0 0
CUGGAGCGAUAGUCUUGG	0.905	2.05 0.817 1.27	0.600 0 0.840	0.950 0 0
CUGGAGCGAUAGUCUUUG	0.889	1.76 1.09 1.69	0.620 0.0273 0.808	0 0 0
CUGGAGCGAUAGUGUAAG	0.679	0.313 0.356 0.335	0 0 0	0 0 0
CUGGAGCGAUAGUGUACG	0.614	0.196 0.209 0.242	0 0.0273 0.0159	0 0 0

The last 9 entries again:

{"sequence": "CUGGAGCGAUAGUCUGCG", "pool": "0.986", "IR": "0.274 0.272 0.372", "LM": "0.0207 0.0273 0.0317", "Sys": "0 0 0"}
{"sequence": "CUGGAGCGAUAGUCUGGG", "pool": "0.614", "IR": "0.294 0.251 0.447", "LM": "0.0620 0 0", "Sys": "0 0 0"}
{"sequence": "CUGGAGCGAUAGUCUGUG", "pool": "0.873", "IR": "0.509 0.377 0.744", "LM": "0.103 0 0", "Sys": "0 0 0"}
{"sequence": "CUGGAGCGAUAGUCUUAG", "pool": "1.03", "IR": "1.98 0.984 1.95", "LM": "0.620 0.491 0.856", "Sys": "0.891 0.798 0.458"}
{"sequence": "CUGGAGCGAUAGUCUUCG", "pool": "0.760", "IR": "1.70 1.01 1.77", "LM": "0.0207 0.0273 0.0317", "Sys": "0 0 0"}
{"sequence": "CUGGAGCGAUAGUCUUGG", "pool": "0.905", "IR": "2.05 0.817 1.27", "LM": "0.600 0 0.840", "Sys": "0.950 0 0"}
{"sequence": "CUGGAGCGAUAGUCUUUG", "pool": "0.889", "IR": "1.76 1.09 1.69", "LM": "0.620 0.0273 0.808", "Sys": "0 0 0"}
{"sequence": "CUGGAGCGAUAGUGUAAG", "pool": "0.679", "IR": "0.313 0.356 0.335", "LM": "0 0 0", "Sys": "0 0 0"}
{"sequence": "CUGGAGCGAUAGUGUACG", "pool": "0.614", "IR": "0.196 0.209 0.242", "LM": "0 0.0273 0.0159", "Sys": "0 0 0"}